A mixed list of measured activities; the numbers were collected in NIAID ChemDB.

Shared fields: host cell toxicity; measure: CC50

Two numbers with a dash give a range or band.

compound	read by	cell line	result
C[C@H](Cn1cnc2c(N)ncnc21)OCP(=O)(O)O		CHO (hOAT1)	21 µM
O=C(N[C@H]1N=C(c2ccccc2)c2ccccc2NC1=O)c1cc2ccccc2o1		HEP-2	2.6 µM
Nc1nc2c(ncn2CCOCP(=O)(O)O)c(=O)[nH]1	MTT	CBMC	6 µM
O=C(Nc1cccs1)NC1N=C(c2ccccc2)c2ccccc2NC1=O		HEP-2	3.4 µM
O=c1cc(-c2ccc(Oc3c(O)cc4oc(-c5ccc(O)cc5)cc(=O)c4c3O)cc2)oc2cc(O)cc(O)c12	visual reading	BSC-1	<4 µg/mL
O=C(NCc1ccc(Br)cc1)NC1N=C(c2ccccc2)c2ccccc2NC1=O		HEP-2	2 µM
Oc1cc(O)c2c(c1)O[C@H](c1ccc(O)c(O)c1)[C@H](O)C2		Huh-7/3-1	113.8 µg/mL
CC(C)OC(=O)[C@H](C)N[P@](=O)(CO[C@H](C)Cn1cnc2c(N)ncnc21)Oc1ccccc1	ATP	RPTECs (clinical isolate 1)	22 µM
CCOC(=O)C(N)(c1c[nH]c2ccccc12)C(F)(F)F	MTT	TZM-bl	69.9 µM
Nc1nc2c(ncn2COCCO)c(=O)[nH]1		SupT1	>250 µg/mL
CC(C)(C)OC(=O)NC(C(=O)O/N=C1\c2ccccc2-c2c1c(N1CCN(c3ccccn3)CC1)nc1ccc(Br)cc21)C(C)(C)C	MTT	U-937	>20 µg/mL
COC(=O)C(N)(c1c[nH]c2ccc(Br)cc12)C(F)(F)F	MTT	TZM-bl	114 µM
CC(=O)c1ccc(C(=O)Nc2cccc(Cn3nc(C(N)=O)c4ccccc43)c2)cc1	MTT	Huh7.5.1	>10 µM
C/C(=C\C=C\[C@@H](C)C1CC[C@@]2(C)[C@@H]3CC[C@H]4C(C)(C)C(=O)CC[C@]4(C)[C@@]3(O)CC[C@]12C)C(=O)O		P-388	29.17 µM
O=c1nc(N2CCN(CC3CCCCC3)CC2)sc2c([N+](=O)[O-])cc(C(F)(F)F)cc12	MTT	A-594	784.2 µg/mL
Nc1ccn(C[C@H]2COP(=O)(O)CO2)c(=O)n1		CD4+ T lymphocytes	44 µg/mL
NC(=O)c1nn(Cc2cccc(NC(=O)c3cccc([N+](=O)[O-])c3)c2)c2ccccc12	MTT	Huh7.5.1	>10 µM
Nc1nc2c(ncn2COC(CO)CO)c(=O)[nH]1		SupT1	50 µg/mL
Nc1ncnc2c1ccn2[C@@H]1O[C@H](CO)[C@@H](O)[C@H]1O		PRK	0.4 µg/mL
CC[C@H](O)C1=C[C@@H](n2cnc3c(N)ncnc32)[C@H](O)[C@@H]1O		P4	>68 µM
O=c1[nH]c(=O)n([C@H]2C[C@H](O)[C@@H](CO)O2)cc1I	MTT	HSB-2	288 µM
Nc1nc(=O)n([C@@H]2O[C@H](CO)[C@@H](O)[C@@H]2F)cc1I		NC-37 CELLS	10 µM
CCOc1ccc(C(C)=O)cc1C(=O)NC1N=C(c2ccccc2)c2ccccc2NC1=O		HEP-2	3.5 µM
COC(=O)CCC(=O)O[C@H]1C[C@@H]2c3c(cc(OC)c4c5c(c(=O)oc34)C(=O)CC5)O[C@@H]2O1		L-02	4.2 µM
NC1=NC2C(C=CN2CC(CO)CCO)C(=O)N1		SupT1	107 µg/mL
C/C(=C\CC[C@@H](C)C1CC[C@@]2(C)[C@@H]3CC[C@H]4C(C)(C)C(=O)CC[C@]4(C)[C@@]3(O)CC[C@]12C)C(=O)O		P-388	>40 µM
COC(=O)CNC(=O)c1nn(Cc2cccc(NC(=O)c3ccc(F)cc3)c2)c2ccccc12	MTT	Huh7.5.1	>10 µM
NC(=O)c1ncn([C@@H]2O[C@H](CO)[C@@H](O)[C@H]2O)n1	neutral red	Ava5	76 µM
Cc1cn([C@H]2C[C@H](N=[N+]=[N-])[C@@H](CO)O2)c(=O)[nH]c1=O		CEM174	>100 µM
C=C(C)/C=C/[C@]12C[C@H](C)C3CC[C@](C)(C#N)[C@@H](CC[C@H]1C)[C@@H]32		Mammalian KB cells	19 µg/mL
NC(=O)c1ncn([C@@H]2O[C@H](CO)[C@@H](O)[C@H]2O)n1		Panc-1	5–4500 µM
CN(CC1CCCCC1)C1CCN(c2nc(=O)c3cc(C(F)(F)F)cc([N+](=O)[O-])c3s2)CC1	MTT	A-594	531 µg/mL
O=C1C[C@@H](c2ccc(O)cc2)Oc2cc(O)c(-c3c(O)cc4c(c3O)C(=O)C[C@@H](c3ccc(O)cc3)O4)c(O)c21	visual reading	MDCK	12 µg/mL
CCCCCCCCCC(=O)O/N=C1\c2ccccc2-c2c1c(-n1ccnc1)nc1ccc(Br)cc21	MTT	U-937	>10 µg/mL
Nc1ncnc2c1c(-c1ccc(C(F)(F)F)cc1)cn2[C@@H]1O[C@H](CO)[C@@H](O)[C@H]1O	MTT	BJ	59.9 µM
CON=C1CCN(c2nc(=O)c3cc(C(F)(F)F)cc([N+](=O)[O-])c3s2)CC1	MTT	A-594	102 µg/mL
CN(C)C(=O)O/N=C1\c2ccccc2-c2c1c(N1CCN(c3ccccn3)CC1)nc1ccc(Br)cc21	MTT	U-937	>10 µg/mL
FC(F)(F)c1ccccc1-c1nc(=S)[nH][nH]1	MTT	THP-1	38.07 µg/mL
O=c1[nH]c(=O)n([C@H]2C[C@H](O)[C@@H](CO)O2)cc1C(F)(F)F	MTT	HSB-2	20 µM
O=Nc1c(-c2c(O)[nH]c3ccccc23)[nH]c2ccccc12	MTT	MDM	>4 µM
CCCCCC(=O)O/N=C1\c2ccccc2-c2c1c(N1CCN(c3ccccn3)CC1)nc1ccc(Br)cc21	MTT	U-937	>20 µg/mL
O=c1[nH]c(=O)n([C@H]2C[C@H](O)[C@@H](CO)O2)cc1/C=C/Br		H4	200 µg/mL
C#C[C@@H](O)C1=C[C@@H](n2cnc3c(N)ncnc32)[C@H](O)[C@@H]1O		P4	>69 µM
Nc1nc2c(ncn2CCC(CO)CO)c(=O)[nH]1		CD4+ T lymphocytes	>250 µg/mL
Cc1cn([C@H]2C[C@H](N=[N+]=[N-])[C@@H](CO)O2)c(=O)[nH]c1=O		MM	>100 µM
Nc1ncnc2c1ncn2[C@@H]1O[C@H](OCP(=O)(O)O)C=C1F		CHO (hOAT1)	435 µM
CC1=C(C)[C@](CO)(c2ccccc2)C[C@H]1n1cnc2c(N)ncnc21		HEL 299	>100 µg/mL
COc1cccc(CCC(=O)NC2N=C(c3ccccc3)c3ccccc3NC2=O)c1		HEP-2	5 µM
O=C1O[C@H]2[C@@H]3OC(=O)c4cc(O)c(O)c(O)c4-c4c(cc(O)c(O)c4O)C(=O)OC[C@H]2O[C@@H](OC(=O)c2cc(O)c(O)c(O)c2)[C@@H]3OC(=O)c2cc(O)c(O)c3c2[C@@H]2C1=CC(=O)[C@](O)(O3)C2(O)O	XTT	MAGI	315 µM
CC(c1ccc2oc3ccccc3c2c1)n1cc(-c2ccc3oc4ccccc4c3c2)nn1	MTT	HEK293T	>50 µg/mL
O=C(O[C@@H]1Cc2c(O)cc(O)cc2O[C@@H]1c1cc(O)c(O)c(O)c1)c1cc(O)c(O)c(O)c1		Huh-7/3-1	41.68 µg/mL
CCSc1nnc(-c2ccc(F)cc2)o1	MTT	THP-1	>100 µg/mL
COC(=O)/C(C)=C/C=C/[C@@H](C)C1CC[C@@]2(C)[C@@H]3CC[C@H]4C(C)(C)C(=O)CC[C@]4(C)C3=CC[C@]12C		P-388	32.99 µM
CC1=C(C)C(CO)(CO)C[C@H]1n1cnc2c(N)ncnc21		HEL 299	>100 µg/mL
Nc1nccc2c1ncn2[C@@H]1C=C(CO)[C@@H](O)[C@H]1O		P4	76 µM
Nc1ncnc2c1ncn2CCOCP(=O)(O)O	MTT	CBMC	44 µM
Clc1ccc(-c2nc(SCC3CC3)n[nH]2)cc1	MTT	THP-1	>100 µg/mL
O=c1nc(N2CC(=NOCc3ccccc3)C2)sc2c([N+](=O)[O-])cc(C(F)(F)F)cc12	MTT	A-594	158 µg/mL
Cc1cn([C@H]2C=C[C@@H](CO)O2)c(=O)[nH]c1=O		C3H	>200 µM
C[C@H](O)C1=C[C@@H](n2cnc3c(N)ncnc32)[C@H](O)[C@@H]1O		P4	>36 µM
Nc1ncnc2c1ncn2C[C@@H](CO)OCP(=O)(O)O		U138-MG	55 µg/mL
NC(=O)c1nn(Cc2cccc(NC(=O)c3ccc(F)cc3)c2)c2ccccc12	MTT	Huh7.5.1	20.67 µM
O=c1[nH]cnc2c1ncn2[C@H]1CC[C@@H](CO)O1		HELA-CD4+	2.7 µM
CC(C)NS(=O)(=O)c1nc(-c2ccc(Cl)cc2)n[nH]1	MTT	Panc-1	>100 µg/mL
CO[C@H]1/C=C/O[C@@]2(C)Oc3c(C)c(O)c4c(O)c(c(/C=N/N5CCN(C)CC5)c(O)c4c3C2=O)NC(=O)/C(C)=C\C=C\[C@H](C)[C@H](O)[C@@H](C)[C@@H](O)[C@@H](C)[C@H](OC(C)=O)[C@@H]1C		Vero cells	89 µg/mL
COC(=O)C(N)(c1c[nH]c2ccc(OC)cc12)C(F)(F)F	MTT	TZM-bl	132 µM
CC(N)C12CC3CC(CC(C3)C1)C2		161-Br	10–4000 µM
CCOC(=O)C(N)(c1c[nH]c2ccc(C=O)cc12)C(F)(F)F	MTT	TZM-bl	>127 µM
S=c1[nH]nc(-c2ccc(Cl)cc2)s1	MTT	THP-1	>100 µg/mL

The last 5 rows once more:

compound	read by	cell line	result
CO[C@H]1/C=C/O[C@@]2(C)Oc3c(C)c(O)c4c(O)c(c(/C=N/N5CCN(C)CC5)c(O)c4c3C2=O)NC(=O)/C(C)=C\C=C\[C@H](C)[C@H](O)[C@@H](C)[C@@H](O)[C@@H](C)[C@H](OC(C)=O)[C@@H]1C		Vero cells	89 µg/mL
COC(=O)C(N)(c1c[nH]c2ccc(OC)cc12)C(F)(F)F	MTT	TZM-bl	132 µM
CC(N)C12CC3CC(CC(C3)C1)C2		161-Br	10–4000 µM
CCOC(=O)C(N)(c1c[nH]c2ccc(C=O)cc12)C(F)(F)F	MTT	TZM-bl	>127 µM
S=c1[nH]nc(-c2ccc(Cl)cc2)s1	MTT	THP-1	>100 µg/mL

An empty or dashed field is not shown. CCn: concentration that lowers growth or viability of the cells by n%. Conditions beyond the fields shown may differ between rows.